According to patent publication US12161664B2, “Tetrathionate for cyanide and methylmercaptan poisoning” (dated 2024):

Experiment: Tetrathionate reaction with cyanide to thiocyanate (ferric nitrate, absorption at 460 nm)
Conditions: excess cyanide, 37° C., pH 11, thiosulfate 5 mM, up to 60 min incubation

## O=S(O)(O)=S
Listed as Thiosulfate
  reaction with cyanide (thiocyanate production): did not react
Listed as thiosulfate
  reaction with cyanide (thiocyanate production): no thiocyanate production was found
